# Measured values published in patent US20230304010A1, “COMPOSITIONS AND METHODS FOR TREATING VIRAL INFECTIONS” (priority 2020, published 2023).
# Legend:
# ACE2, Q9BYF1 [1] = test: inhibitor screening kit; ACE2:SARS-CoV-2 Spike (Example 4 assay)
# ACE2, Q9BYF1 [2] = test: inhibitor screening kit; SARS-CoV-2 Spike:ACE2 (Example 3 assay)
# ACE2, Q9BYF1 [3] = test: SARS-CoV-2 Spike:ACE2 inhibitor screening kit (Example 4)
# ACE2, Q9BYF1 [4] = test: ACE2:SARS-CoV-2 Spike kit, ACE2 on plate; competitor Spike Gamma (P1)-Fc
# ACE2, Q9BYF1 [5] = test: ACE2:SARS-CoV-2 Spike kit, ACE2 on plate; competitor Spike Alpha (B117)-Fc
# ACE2, Q9BYF1 [6] = test: ACE2:SARS-CoV-2 Spike kit, ACE2 on plate; competitor Spike Beta (B1312)-Fc
# ACE2, Q9BYF1 [7] = test: ACE2:SARS-CoV-2 Spike kit, ACE2 on plate; competitor Spike Epsilon (B1429)-Fc
# ACE2, Q9BYF1 [8] = test: ACE2:SARS-CoV-2 Spike kit, ACE2 on plate; competitor Spike Delta (B1617)-Fc
binder,measurement,setting,value
GNYNYLYRLFKLWRALWRLWRSLWRLLWK (modifications not checked) [Seq15 (LNCOV-22)],IC50,"ACE2, Q9BYF1 [1]",> 10000 nM
same,IC50,"ACE2, Q9BYF1 [2]",> 1000 nM
TNGVGYQPYKLWRALWRLWRSLWRLLWK (modifications not checked) [Seq22 (LNCOV-14)],fold less potent than Seq20/Seq21,"ACE2, Q9BYF1 [3]",3.6 fold
same,IC50,"ACE2, Q9BYF1 [1]",145 nM
same,IC50,"ACE2, Q9BYF1 [2]",> 1000 nM
TEYQAGSTKLWRALWRLWRSLWRLLWK (modifications not checked) [Seq16 (LNCOV-17)],IC50,"ACE2, Q9BYF1 [2]",> 1000 nM
NGVEGFNKLWRALWRLWRSLWRLLWK (modifications not checked) [Seq17 (LNCOV-15)],IC50,"ACE2, Q9BYF1 [4]",87.2 nM
same,IC50,"ACE2, Q9BYF1 [5]",136 nM
same,IC50,"ACE2, Q9BYF1 [6]",75.2 nM
same,IC50,"ACE2, Q9BYF1 [7]",94.7 nM
same,IC50,"ACE2, Q9BYF1 [8]",48.2 nM
